Patent US20240132578A1 (published 2024)

Legend:
Experiment in all cases: cell-based or functional assay
[1] = biological target: HIV-1 93IN905 envelope protein (Env) on pseudotyped virus (HIV-1 strain 93IN905)
[2] = biological target: HIV-1 IAVI_C22 envelope protein (Env) on pseudotyped virus (HIV-1 strain IAVI C22)
[3] = biological target: HIV-1 92TH021 envelope protein (Env) on pseudotyped virus (HIV-1 strain 92TH021)
[4] = biological target: HIV-1 NL43 envelope protein (Env) on pseudotyped virus (HIV-1 strain NL43)
[5] = biological target: HIV-1 94UG103 envelope protein (Env) on pseudotyped virus (HIV-1 strain 94UG103)
[6] = biological target: HIV-1 92BR020 envelope protein (Env) on pseudotyped virus (HIV-1 strain 92BR020)
[7] = biological target: HIV-1 Env of isolate MG RM-A-002 (pseudovirus) (HIV-1)
[8] = biological target: HIV-1 Env of isolate MG RM-A-004 (pseudovirus) (HIV-1)
[9] = biological target: HIV-1 Env of isolate MG RM-A-003 (pseudovirus) (HIV-1)
[10] = biological target: HIV-1 Env of isolate MG RM-C-002 (HIV-1)
[11] = biological target: HIV-1 Env of isolate MG RM-C-006 (HIV-1)
[12] = biological target: HIV-1 Env of isolate MG RM-C-010 (HIV-1)
[13] = biological target: HIV-1 Env of isolate MG RM-C-019 (HIV-1)

B1: 1456_P20 (PG20) (antibody, V domains shown)
VH: QVRLVQSGPEVKKPGSSVTVSCQASGGTFSSYAFTWVRQAPGQGLEWLGMVTPIFGEAKYSQRFEGRVTITADESTSTTSIELRGLTSEDTAIYYCARDRRAVPIATDNWLDPWGQGTLVTVSS
VL: DIQLTQSPSSLSASVGDRVSITCRASQTINNYLNWYQQTPGKAPKLLIYGASNLQNGVPSRFSGSGSGTDFTLTISSLQPEDFATYYCQQSFSTPRTFGQGTRLDIKR
[1]
  IC50, Neutralizing Antibody Assay, Virus/Ab Incubation 1 hour: > 50 µg/mL
[2]
  IC50, Neutralizing Antibody Assay, Virus/Ab Incubation 1 hour: > 50 µg/mL
  IC50, Neutralizing Antibody Assay, Virus/Ab Incubation 18 hour: > 50 µg/mL
[3]
  IC50, Neutralizing Antibody Assay, Virus/Ab Incubation 1 hour: > 50 µg/mL
  IC50, Neutralizing Antibody Assay, Virus/Ab Incubation 18 hour: > 50 µg/mL
[4]
  IC50, Neutralizing Antibody Assay, Virus/Ab Incubation 1 hour: 0.2 µg/mL
  IC50, Neutralizing Antibody Assay, Virus/Ab Incubation 18 hour: 0.05 µg/mL
[5]
  IC50, Neutralizing Antibody Assay, Virus/Ab Incubation 1 hour: > 50 µg/mL
  IC50, Neutralizing Antibody Assay, Virus/Ab Incubation 18 hour: > 50 µg/mL
[6]
  IC50, Neutralizing Antibody Assay, Virus/Ab Incubation 1 hour: > 50 µg/mL
  IC50, Neutralizing Antibody Assay, Virus/Ab Incubation 18 hour: > 50 µg/mL

B2: 4995_E20 (PGT-142) (antibody, V domains shown)
VH: QVQLVQSGPEVKKPGSSVKVSCKASGNTFSKYDVHWVRQATGQGLEWVGWISHERDKTESAQRFKGRVTFTRDTSATTAYMELRGLTSDDTAIYYCTRGSKHRLRDYVLYDDYGLINYQEWNDYLEFLDVWGHGTAVTVSS
VL: DTVVTQSPLSLPVTPGEAASMSCSSTQSLRHSNGANYLAWYQHKPGQSPRLLIRLGSQRASGVPDRFSGSGSGTHFTLKISRVEAEDAAIYYCMQGLNRPWTFGKGTKLEIK
[7]
  IC50 (µg/mL), single-round pseudovirus neutralization: 0.007 µg/mL
[8]
  IC50 (µg/mL), single-round pseudovirus neutralization: 0.002 µg/mL

B3: 4970_K22 (PGT-144) (antibody, V domains shown)
VH: QVQLVQSGAEVKKPGSSVKVSCKASGNTFRKYDVHWVRQATGQGLEWVGWMSHEGDKTESAQRFKGRVSFTRDNSASTAYIELRGLTSDDTAIYYCTGGSKHRLRDYVLYDDYGLINQQEWNDYLEFLDVWGHGTAVTVSS
VL: DTVVTQSPLSLSVTPGEAASMSCTSTQSLRHSNGANYLAWYQHKPGQSPRLLIRLGSQRASGVPDRFSGSGSGTHFTLKISRVEADDAAIYYCMQGLNRPWTFGKGTKLEIK
[9]
  IC50 (µg/mL), single-round pseudovirus neutralization: > 50 µg/mL

B4: 4993_K13 (PGT-141) (antibody, V domains shown)
VH: QVQLVQSGPEVKKPGSSVKVSCKASGNTFSKYDVHWVRQATGQGLEWVGWMSHEGDKTESAQRFKGRVTFTRDTSASTAYMELRGLTSDDTAIYYCTRGSKHRLRDYVLYDDYGLINYQEWNDYLEFLDVWGHGTAVTVSS
VL: DTVVTQSPLSLPVTPGEAASMSCSSTQSLRHSNGANYLAWYQHKPGQSPRLLIRLGSQRASGVPDRFSGSGSGTHFTLKISRVEAEDAAIYYCMQGLNRPWTFGKGTKLEIK
[8]
  IC50 (µg/mL), single-round pseudovirus neutralization: 0.007 µg/mL

B5: 4980_N08 (PGT-143) (antibody, V domains shown)
VH: QVQLEQSGAEVKKPGSSVKVSCKASGNTFSKYDVHWVRQATGQGLEWVGWMSHEGDKTESAQRFKGRVTFTRDTSASTAYMELRGLTSDDTAIYYCTRGSKHRLRDYVLYDDYGLINYQEWNDYLEFLDVWGHGTAVTVSS
VL: DTVVTQSPLSLPVTPGEAASMSCTSTQSLRHSNGANYLAWYQHKPGQSPRLLIRLGSQRASGVPDRFSGSGSGTHFTLKISRVEPEDAAIYYCMQGLNRPWTFGKGTKLEIK
[8]
  IC50 (µg/mL), single-round pseudovirus neutralization: 0.007 µg/mL

B6: PGT-145 (4995_P16) (antibody, V domains shown)
VH: QVQLVQSGAEVKKPGSSVKVSCKASGNSFSNHDVHWVRQATGQGLEWMGWMSHEGDKTGLAQKFQGRVTITRDSGASTVYMELRGLTADDTAIYYCLTGSKHRLRDYFLYNEYGPNYEEWGDYLATLDVWGHGTAVTVSS
VL: EVVITQSPLFLPVTPGEAASLSCKCSHSLQHSTGANYLAWYLQRPGQTPRLLIHLATHRASGVPDRFSGSGSGTDFTLKISRVESDDVGTYYCMQGLHSPWTFGQGTKVEIK
[10]
  IC50, pseudovirus neutralization: 0.008 µg/mL
[11]
  IC50, pseudovirus neutralization: 0.01 µg/mL

B7: PGT-142 (4995_E20) (antibody, V domains shown)
VH: QVQLVQSGPEVKKPGSSVKVSCKASGNTFSKYDVHWVRQATGQGLEWVGWISHERDKTESAQRFKGRVTFTRDTSATTAYMELRGLTSDDTAIYYCTRGSKHRLRDYVLYDDYGLINYQEWNDYLEFLDVWGHGTAVTVSS
VL: DTVVTQSPLSLPVTPGEAASMSCSSTQSLRHSNGANYLAWYQHKPGQSPRLLIRLGSQRASGVPDRFSGSGSGTHFTLKISRVEAEDAAIYYCMQGLNRPWTFGKGTKLEIK
[12]
  IC50, pseudovirus neutralization: 0.07 µg/mL

B8: 1496_C09 (PG9) (TCN-109) (antibody, V domains shown)
VH: QRLVESGGGVVQPGSSLRLSCAASGFDFSRQGMHWVRQAPGQGLEWVAFIKYDGSEKYHADSVWGRLSISRDNSKDTLYLQMNSLRVEDTATYFCVREAGGPDYRNGYNYYDFYDGYYNYHYMDVWGKGTTVTVSS
VL: QSALTQPASVSGSPGQSITISCNGTSNDVGGYESVSWYQQHPGKAPKVVIYDVSKRPSGVSNRFSGSKSGNTASLTISGLQAEDEGDYYCKSLTSTRRRVFGTGTKLTVLG
[13]
  IC50 (µg/mL), pseudovirus neutralization: 0.005 µg/mL
